Measured values from several laboratories, pooled; numbers as filed in NIAID ChemDB.

All rows: growth or infection tests

Fold resistance: result on the changed form divided by that on wild type. Rows are shuffled and stem from different studies. Inhibition is in % at the dose shown (toxicity tests: loss of growth or viability). ECn is the concentration giving n% inhibition of infection, replication or growth. A number after MIC or MFC names an inhibition level or a share of isolates. Zones are inhibition diameters on agar. An empty or dashed field is not shown. a–b is a range or a potency band.

structure | strain or isolate | species | mutations | cells | read-out | read by | tested at | value
C#CC[C@@H](C(=O)N[C@H](/C=C/C(=O)OCC)C[C@@H]1CCNC1=O)n1cccc(NC(=O)c2cc(C)on2)c1=O | Serotype 11 | Rhinovirus |  | H1-HELA | inhibition | cytopathic effect / XTT | 0.112 µM | 90%
C[C@H]1COc2c(N3CCN(C)CC3)c(F)cc3c(=O)c(C(=O)O)cn1c23 | Clinical isolate RT1 | Streptococcus pneumoniae |  |  | MIC |  |  | >8 µg/mL
NC(=O)c1c[se]c([C@@H]2O[C@H](CO)[C@@H](O)[C@H]2O)n1 | COAN3739 | Pichinde virus |  | VERO | EC50 | cytopathic effect |  | 4 µg/mL
OC[C@H]1O[C@@H](n2cnc3c(NC4CC4)nc(Cl)nc32)[C@H](O)[C@@H]1O | IRB-LA | Bovine herpesvirus 1 |  | MDBK | EC50 | cytopathic effect |  | >50 µM
CN1CCN(c2c(F)cc3c(=O)c(C(=O)O)cn4c3c2SCC4)CC1 | 44 strains | Haemophilus influenzae |  |  | MIC90 |  |  | 0.5 µg/mL
CC(=O)N1CCN(c2ccc(OC[C@H]3CO[C@](Cn4ccnc4)(c4ccc(Cl)cc4Cl)O3)cc2)CC1 | 52 clinical isolates | Candida parapsilosis |  |  | MIC90 | broth dilution |  | 0.062 µg/mL
Nc1nccc2c1ncn2[C@@H]1C=C[C@@H](O)[C@H]1O |  | Rotavirus A |  | MA-104 | EC90 | virus yield |  | 1 µg/mL
O=C1Nc2nc[nH]c2C(=O)N(Cc2ccccc2)N1 |  | West Nile virus |  | HepG2.2.15 | EC50 | cytopathic effect |  | 3–5 µM
OC[C@@H]1C[C@@H](O)[C@H](n2cnc3c(NC4CCCCCC4)cc(Cl)nc32)O1 | KV1772 | Maedi-visna virus |  | Sheep chondrocytes G81092 | EC50 | cytopathic effect |  | 0.15 µM
Cc1cn([C@H]2C[C@H](N=[N+]=[N-])[C@@H](CO)O2)c(=O)[nH]c1=O |  | SHIV |  | Macrophage | EC90 | p24 / ELISA |  | 0.9 µM
C[C@@H]1CN(c2c(F)c(N)c3c(=O)c(C(=O)O)cn(C4CC4)c3c2F)C[C@H](C)N1 | 13 | Mycobacterium avium complex |  |  | MIC | broth dilution |  | 2 µg/mL
O=c1[nH]c(=O)n([C@H]2C[C@H](O)[C@@H](CO)O2)cc1Br |  | Duck hepatitis B virus |  | Primary duck hepatocytes | EC50 | antigen |  | >50 µg/mL
N#CC[C@H](C1CCCC1)n1cc(-c2ncnc3[nH]ccc23)cn1 |  | SHIV |  | PBMC | EC50 | p24 / ELISA |  | 0.09 µM
CO[C@H]1/C=C/O[C@@]2(C)Oc3c(C)c(O)c4c(=O)c(c5oc6cc(N7CCN(CC(C)C)CC7)cc(=O)c6nc5c4c3=C2O)NC(=O)/C(C)=C\C=C\[C@H](C)[C@H](O)[C@@H](C)[C@@H](O)[C@@H](C)[C@H](OC(C)=O)[C@@H]1C | 20 strains (methicillin-susceptible) | Staphylococcus aureus |  |  | MIC50 |  |  | 0.0078 µg/mL
Nc1ccn(C[C@@H](CO)OCP(=O)(O)O)c(=O)n1 | KOS PMEA-resistant | Herpes simplex virus 1 |  | HEL | EC50 | cytopathic effect |  | 0.4 µg/mL
CCCOc1ccc2nc(NC(=O)OC)[nH]c2c1 | IU4 | Cryptococcus neoformans |  |  | EC90 |  |  | 3.2 µg/mL
CCCCCCCCCCCCNc1nc(=O)c2ncn([C@H]3C[C@H](O)[C@@H](CO)O3)c2c(=O)[nH]1 |  | West Nile virus |  | HepG2.2.15 | EC50 | cytopathic effect |  | 3–10 µM
COc1c(O)c(Cl)c(Cl)c(Cl)c1Cl |  | Saccharomyces cerevisiae |  |  | MIC |  |  | 50 µg/mL
N=C(N)c1ncn([C@@H]2O[C@H](CO)[C@@H](O)[C@H]2O)n1 | A/NWS/33 | Influenza A virus (H1N1) |  | MDCK | EC50 | neutral red |  | 18 µg/mL
OC[C@@H]1CC[C@H](n2cnc3c(NC4CC4)ncnc32)O1 | KV1772 | Maedi-visna virus |  | Sheep chondrocytes G81092 | EC50 | cytopathic effect |  | 0.15 µM
CCn1cc(C(=O)O)c(=O)c2cc(F)c(N3CCNCC3)cc21 | 44 strains | Haemophilus influenzae |  |  | MIC90 |  |  | 0.06 µg/mL
CN(C)[C@@H]1C(=O)C(C(N)=O)=C(O)[C@@]2(O)C(=O)C3=C(O)c4c(O)c(NC(=O)CNC(F)(F)F)cc(F)c4C[C@H]3C[C@@H]12 | 161-MRS | Staphylococcus aureus |  |  | EC50 | agar diffusion |  | 2 µg/mL
Nc1nc(=O)c2ncn(CCOCP(=O)(O)O)c2c(=O)[nH]1 |  | West Nile virus |  | HepG2.2.15 | EC50 | cytopathic effect |  | 300 µM
NC(=O)c1nc(F)c[nH]c1=O | Guangdong/5/94 | Influenza B virus |  | MDCK | EC50 | plaque count |  | 0.053 µg/mL
Nc1ncnc2c1ncn2CCOCP(=O)(O)O | KOS S2242-resistant | Herpes simplex virus 1 |  | HEL | EC50 | cytopathic effect |  | 54 µg/mL
CO[C@@H]1C[C@@H](C[C@H]2CC[C@H](C)[C@H]([C@@H](C)C(C)=O)O2)OC2(O[C@](C)([C@H]3CC[C@@](C)([C@@H]4O[C@@H]([C@H]5O[C@@](O)(CO)[C@@H](C)C[C@@H]5C)C[C@@H]4C)O3)C[C@H]2C)[C@@H]1C | RH | Toxoplasma gondii |  |  | inhibition | uracil uptake / radiometric | 0.05 µg/mL | 100%
CN1CCC2(C1)C1CC3CC(C1)CC2C3 | A/Maryland/104/68 | Influenza A virus |  |  | MIC |  |  | 0.1 µg/mL
COc1cc2oc(=O)ccc2cc1CC(O)C(C)(C)O |  | Klebsiella pneumoniae |  |  | zone | agar diffusion | 250 µg/disc | 0 mm
COc1c(C)c2c(c(O)c1CC(=O)O)C(=O)OC2 | ECXH-3 | Mumps virus |  | VERO | EC50 | plaque count |  | 0.82 µg/mL
C=CCc1ccc(O)c(-c2ccc(O)c(CC=C)c2)c1 | YL 370 | Candida albicans |  |  | MIC | broth dilution |  | 128 µg/mL
OC[C@H]1O[C@@H](n2cnc3c(NC4CCCCCC4)nc(Cl)nc32)CC1O | IRB-LA | Bovine herpesvirus 1 |  | MDBK | EC50 | cytopathic effect |  | 50 µM
NC(=O)c1[nH]nc([C@@H]2O[C@H](CO)[C@@H](O)[C@H]2O)c1O |  | Duck hepatitis B virus |  | Primary duck hepatocytes | EC50 | antigen |  | 5.3 µg/mL
CC(C)(CO)C(=O)SCCOP(=O)(NCc1ccccc1)OC[C@H]1O[C@@H](n2cnc3c(=O)[nH]c(N)nc32)[C@](C)(O)[C@@H]1O | GT1a | Hepatitis C virus | Y93N | Replicon cells | fold resistance | replicon |  | 1.01
OC[C@@H]1C[C@@H](O)[C@H](n2cnc3c(NC4CCCCC4)nccc32)O1 | IRB-LA | Bovine herpesvirus 1 |  | MDBK | EC50 | cytopathic effect |  | >50 µM
Cc1cn([C@H]2C[C@H](N=[N+]=[N-])[C@@H](CO)O2)c(=O)[nH]c1=O |  | Duck hepatitis B virus |  | Primary duck hepatocytes | EC50 | antigen |  | 10 µg/mL
COc1cc(C[C@H](C)[C@H](C)Cc2ccc(O)c(O)c2)ccc1O | CCC 131-2000 | Candida lusitaniae |  |  | MIC100 | broth dilution |  | 125 µg/mL
Nc1cc(Cl)nc2c1ncn2[C@@H]1O[C@H](CO)C[C@H]1O | KV1772 | Maedi-visna virus |  | Sheep chondrocytes G81092 | EC50 | cytopathic effect |  | 0.15 µM
CCCN(CCC)c1c([N+](=O)[O-])cc(C(F)(F)F)cc1[N+](=O)[O-] | Trifluralin-resistant | Toxoplasma gondii |  |  | EC50 |  |  | 3 µM
CO[C@H]1/C=C/O[C@@]2(C)Oc3c(C)c(O)c4c(O)c(c5c(c4c3C2=O)NC2(CCN(CC(C)C)CC2)N=5)=NC(=O)/C(C)=C\C=C\[C@H](C)[C@H](O)[C@@H](C)[C@@H](O)[C@@H](C)[C@H](OC(C)=O)[C@@H]1C | 16 strains (methicillin- quinolone-resistant) | Staphylococcus aureus |  |  | MIC50 |  |  | 0.0313 µg/mL
C[C@@H](c1ncncc1F)[C@](O)(Cn1cncn1)c1ccc(F)cc1F | 24 clinical isolates | Candida guilliermondii |  |  | MIC90 | broth dilution |  | 0.125 µg/mL
COc1cc(Cc2cnc(N)nc2N)cc(OC)c1OCCCNc1ccc(S(=O)(=O)c2ccc(N)cc2)cc1 | Isolate 5143 | Mycobacterium ulcerans |  |  | MBC |  |  | 2 µg/mL
O=C(OC1Cc2c(O)cc(O)cc2OC1c1cc(O)c(O)c(O)c1)c1cc(O)c(O)c(O)c1 | Clinical isolate 1 | Candida tropicalis |  |  | MIC50 | broth dilution |  | >128 µg/mL
Nc1nc(N)c2ncn(CCOCP(=O)(O)O)c2n1 | KOS GCV-resistant | Herpes simplex virus 1 |  | HEL | EC50 | cytopathic effect |  | 7.2 µg/mL
CCOc1cc(Cc2cnc(N)nc2N)cc(OCC)c1-n1cccc1 | ATCC 35840 | Mycobacterium ulcerans |  |  | MIC |  |  | 0.5 µg/mL
COC(=O)Nc1nc2ccc(Sc3ccccc3)cc2[nH]1 | IU8698 | Cryptococcus neoformans |  |  | EC50 |  |  | 0.011 µg/mL
CC1(C)S[C@@H]2[C@H](NC(=O)[C@H](N)c3ccc(O)cc3)C(=O)N2[C@H]1C(=O)O | 30 strains | Staphylococcus aureus |  |  | MIC50 |  |  | 0.25 µg/mL
Nc1ncnc2c1ncn2[C@H]1CC[C@@H](CO)O1 | LAV-2 | HIV-2 |  | CEM | inhibition | virus yield | 0.1 µM | 0%
OC(Cn1cncn1)(Cn1cncn1)c1ccc(F)cc1F | CCAM 080006 | Aspergillus oryzae |  |  | MIC100 | broth dilution |  | 1.25 µg/mL
c1cc(CN2CCCNCCNCCCNCC2)ccc1CN1CCCNCCNCCCNCC1 | SW7 CLADE C X4 | HIV-1 |  | PBMC | inhibition | p24 | 0.1 µM | 87%
C[C@H]1NCc2cc(-c3ccc4c(=O)c(C(=O)O)cn(C5CC5)c4c3OC(F)F)ccc21 | 18 strains (beta-lactamase-negative) | Haemophilus influenzae |  |  | MIC50 |  |  | 0.008 µg/mL
NC(=O)c1ncn([C@@H]2O[C@H](CO)[C@@H](O)[C@H]2O)n1 | Halonen | Measles virus |  | CV-1 | EC50 | neutral red |  | 1 µg/mL
NC(=O)c1ncn([C@@H]2O[C@H](CO)[C@@H](O)[C@H]2O)n1 |  | Pichinde virus |  | VERO 76 | inhibition | antigen | 3.2 µg/mL | 43%
Nc1ncnc2c1ncn2[C@@H]1C=C(CO)[C@@H](O)[C@H]1O |  | Tacaribe virus |  | VERO | EC50 | cytopathic effect |  | 5.5 µg/mL
Nc1ncnc2c1ncn2[C@@H]1C=C[C@@H](O)[C@H]1O |  | Duck hepatitis B virus |  | Primary duck hepatocytes | EC50 | antigen |  | >100 µg/mL
CCCCNC(=O)n1c(NC(=O)OC)nc2ccccc21 | ATCC 14116 | Cryptococcus neoformans |  |  | EC50 |  |  | <3.5 µg/mL
Nc1nccc2c1ncn2[C@@H]1C[C@H](CO)[C@@H](O)[C@H]1O |  | Semliki Forest virus |  | VERO | EC50 | cytopathic effect |  | >400 µg/mL
O=C(O)P(=O)(O)O | KOS PMEA-resistant | Herpes simplex virus 1 |  | HEL | EC50 | cytopathic effect |  | 113.7 µg/mL
CCCCCCCCCCCCCCNc1nc(=O)c2ncn([C@@H]3O[C@H](CO)[C@@H](O)[C@H]3O)c2c(=O)[nH]1 |  | West Nile virus |  | HepG2.2.15 | EC50 | cytopathic effect |  | 3–10 µM
CC(=O)NC[C@H]1CN(c2ccc(N3CCN(C(=O)CO)CC3)c(F)c2)C(=O)O1 | Penicillin-resistant | Streptococcus pneumoniae |  |  | MIC50 |  |  | 0.25–0.5 µg/mL
Nc1ncnc2c1ncn2CCOCP(=O)(O)O | Oka PFA-resistant/B | Varicella zoster virus |  | HEL | EC50 | cytopathic effect |  | 79.8 µM
CC(C)=CCN1c2cc(Cl)cc3[nH]c(=S)n(c23)C[C@@H]1C |  | HIV-1 | RT-K70R K101E | MT-4 | EC50 |  |  | <1.5 µM

Repeating the first 8 entries:

structure,strain or isolate,species,mutations,cells,read-out,read by,tested at,value
C#CC[C@@H](C(=O)N[C@H](/C=C/C(=O)OCC)C[C@@H]1CCNC1=O)n1cccc(NC(=O)c2cc(C)on2)c1=O,Serotype 11,Rhinovirus,,H1-HELA,inhibition,cytopathic effect / XTT,0.112 µM,90%
C[C@H]1COc2c(N3CCN(C)CC3)c(F)cc3c(=O)c(C(=O)O)cn1c23,Clinical isolate RT1,Streptococcus pneumoniae,,,MIC,,,>8 µg/mL
NC(=O)c1c[se]c([C@@H]2O[C@H](CO)[C@@H](O)[C@H]2O)n1,COAN3739,Pichinde virus,,VERO,EC50,cytopathic effect,,4 µg/mL
OC[C@H]1O[C@@H](n2cnc3c(NC4CC4)nc(Cl)nc32)[C@H](O)[C@@H]1O,IRB-LA,Bovine herpesvirus 1,,MDBK,EC50,cytopathic effect,,>50 µM
CN1CCN(c2c(F)cc3c(=O)c(C(=O)O)cn4c3c2SCC4)CC1,44 strains,Haemophilus influenzae,,,MIC90,,,0.5 µg/mL
CC(=O)N1CCN(c2ccc(OC[C@H]3CO[C@](Cn4ccnc4)(c4ccc(Cl)cc4Cl)O3)cc2)CC1,52 clinical isolates,Candida parapsilosis,,,MIC90,broth dilution,,0.062 µg/mL
Nc1nccc2c1ncn2[C@@H]1C=C[C@@H](O)[C@H]1O,,Rotavirus A,,MA-104,EC90,virus yield,,1 µg/mL
O=C1Nc2nc[nH]c2C(=O)N(Cc2ccccc2)N1,,West Nile virus,,HepG2.2.15,EC50,cytopathic effect,,3–5 µM